# Source: patent US20160250213A1, “FORMULATIONS OF AZAINDOLE COMPOUNDS” (priority 2013, published 2016)
# Tested on: influenza A virus
# Format: in vivo, mice
# Details: 1, 3 or 10 mg/kg BID
smiles,measurement,value
O=C(O)[C@H]1C2CCC(CC2)C1Nc1nc(-c2c[nH]c3ncc(F)cc23)ncc1F (stereo partly shown) [Compound (1)],dosing initiation post infection up to which complete protection from death is provided,up to 72 h
